Source: ChEMBL document CHEMBL3988442, “University of Dundee, Small-Polar-MMV Screening Library” (2021).

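Whole-cell growth test on Mycobacterium tuberculosis, read after 3 days in glucose-containing 7H9 medium; the read-out is not stated. Tested at 50 µM. Higher reads as more growth inhibition (inferred: compounds with an IC50 in retests scored well above the rest). About 69,000 compounds were tested under these conditions; 1.1% (about 760) showed 50% or more at least once.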

Results are given as percent effect.
The record does not define 0% and 100%; most values in the screen are far below 50% and negative numbers occur (in some assays of this library far below -100).
The entries come from a sample that favours strong results.
Two or more numbers in one place are separate tests of the same structure; such repeats can differ widely.

{"compound": "CCNc1ncc2c(n1)CN(c1ccc(OC(F)(F)F)cc1)C2=O", "effect": 26.23}
{"compound": "Cc1ccc(-n2cc(C)cn2)c(NC(=O)NC2(C)CCOC2)c1", "stereo": "configuration not stated", "effect": 18.29}
{"compound": "COCCOCCSc1nnc(Cc2ccccc2F)o1", "effect": 20.24}
{"compound": "CCCOc1ccc2c(c1)OCC(C(=O)NC(C)Cn1cccn1)=C2", "stereo": "configuration not stated", "effect": 24.35}
{"compound": "COc1ccccc1C(=O)Nc1cc(CC(C)C)nn1C", "effect": 24.36}
{"compound": "Cc1csc(N2CCCN(C(=O)c3csc(C)n3)CC2)n1", "effect": 4.825}
{"compound": "COc1ccccc1N1CCN(Cc2nc(C)c(C)o2)CC1", "effect": 15.72}
{"compound": "Cc1ccc(S(=O)(=O)N2CCc3nc(C4CCNCC4)ncc3C2)cc1.Cl", "effect": 77.19}
{"compound": "COC(=O)N1CCC(Nc2cccc(F)c2C#N)CC1", "effect": 25.3}
{"compound": "Cc1nc(=O)c2ccccc2n1C1=CCN(CC(=O)N2CCCC2)CC1", "effect": -13.12}
{"compound": "COc1cc(NCc2c(C)noc2C)c(OC)cc1Cl", "effect": 12}
{"compound": "CN1CCC(CNC(=O)CCSc2ccc3c(c2)OCCO3)C1", "stereo": "configuration not stated", "effect": 16.2}
{"compound": "Cc1nc(-n2nc(-c3cccs3)cc2N)[nH]c(=O)c1C", "effect": 51.09}
{"compound": "CCN1CCN(c2ccc(C(=O)NC(C)C(=O)N(C)C)cc2)CC1", "stereo": "configuration not stated", "effect": -12.21}
{"compound": "O=C(c1ccc(Br)s1)N1CCN(Cc2ccc(OC(F)(F)F)cc2)CC1", "effect": "10.07 & 27.83"}
{"compound": "Cc1cnc(N2CCCC3(COCCN(c4ccc(C)nn4)C3)C2)nc1", "stereo": "configuration not stated", "effect": 15.16}
{"compound": "Cn1ccnc1-c1ccc(NCC2COc3ccccc3O2)nn1", "stereo": "configuration not stated", "effect": 54.07}
{"compound": "COc1ccccc1CC(=O)NS(=O)(=O)c1ccc(C(N)=O)cc1", "effect": 25.01}
{"compound": "Cc1ccc(C)c(S(=O)(=O)NCCNc2ccc(-n3cccc3)nn2)c1", "effect": "26.13 & 16.51"}
{"compound": "Cc1nccn1C1CCCN(C(=O)c2ccc(N3CCCC3)nn2)C1", "stereo": "configuration not stated", "effect": 78.28}
{"compound": "O=C(NC1CC1)c1cc(NC(=O)N2CCCC(O)C2)ccc1Cl", "stereo": "configuration not stated", "effect": -23.08}
{"compound": "CN(C(=O)CC1=CCCCC1)C1CCCN(C2Cc3ccccc3C2)C1", "stereo": "configuration not stated", "effect": 65.74}
{"compound": "CN(C)CCNc1ccc(-c2nc(-c3ccccc3F)no2)cn1", "effect": 56.49}
{"compound": "CSCCC(CO)NC(=O)c1sc(-c2ccccc2Cl)nc1C", "stereo": "configuration not stated", "effect": 0.6458}
{"compound": "COCCN1CC(C(=O)N(C)Cc2ccc(Cl)s2)CC1=O", "stereo": "configuration not stated", "effect": 7.549}
{"compound": "Cc1ccccc1-n1cc(-c2ccnc(N3CCCC(CN)C3)n2)cn1", "stereo": "configuration not stated", "effect": "0.06471 & 2.468"}
{"compound": "Cc1ccc(NC2CCCN(CCCc3ccccc3)C2)nn1", "stereo": "configuration not stated", "effect": -0.4089}
{"compound": "CC(C)(O)CCc1cccc(C(=O)NCc2cnn3cccnc23)c1", "effect": "-4.624 & -20.33"}
{"compound": "CCc1nc(NS(=O)(=O)c2ccc(C)cc2Cl)no1", "effect": -2.365}
{"compound": "COc1ccnc(NCC2CN(C3CC3)CCO2)n1", "stereo": "configuration not stated", "effect": 29.69}
{"compound": "Cc1ccc(C(CNCc2c[nH]nc2C)N(C)C)cc1.Cl", "stereo": "configuration not stated", "effect": "6.997 & 2.751"}
{"compound": "Cc1noc(C)c1C(C)NC(=O)N1CCC(NC(=O)c2ccsc2)CC1", "stereo": "configuration not stated", "effect": "-10.57 & 1.819"}
{"compound": "Cn1cnc2cc(C(=O)N3CCC(c4ccccc4C(=O)O)C3)cnc21", "stereo": "configuration not stated", "effect": "-0.8449 & -9.269"}
{"compound": "Cc1ccc(OCC(=O)Nc2ncccc2OC(F)F)cc1", "effect": "3.636 & 18.99"}
{"compound": "O=C(NCc1cc[nH]n1)NCC(O)c1ccc(F)cc1", "stereo": "configuration not stated", "effect": 9.189}
{"compound": "CCn1nc(C)c2nc(C(C)C)nc(NCC(C)C)c21", "effect": 62.72}
{"compound": "O=C(CCNc1ncccn1)NCc1ccc(Br)s1", "effect": 7.005}
{"compound": "O=c1c2cc3c(cc2nnn1Cc1ccccc1)OCCO3", "effect": 19.91}
{"compound": "Fc1cccc(Nc2nc(N3CCCC3)nc3c2CNCC3)c1", "effect": 83.85}
{"compound": "Cc1ccc(N(CC(=O)N2CCCCC2)C(=O)C2CCCO2)cc1", "stereo": "configuration not stated", "effect": 0.5843}
{"compound": "Cc1ccc(NC(=O)c2coc(C)n2)c(C)c1", "effect": 6.62}
{"compound": "Cc1nc(C)c(CCN2CCC(Oc3ccccc3F)CC2)s1", "effect": 56.83}
{"compound": "O[C@@H]1CN(c2cnc3ccccc3n2)CC[C@H]1c1ccc2c(c1)OCO2", "effect": 81.52}
{"compound": "Cc1noc(C)c1NC(=O)CCn1cc(Br)ccc1=O", "effect": "-27.24 & 7.046"}
{"compound": "CN(C)c1ccc(C(=O)NCCCc2ccccn2)cn1", "effect": 4.638}
{"compound": "CC(=O)Nc1nc(-c2ccc(F)cc2)c[nH]1", "effect": -22.98}
{"compound": "C[C@@H]1CN(c2nc3c(cc2C(N)=O)CCC3)C[C@@]1(O)C1CCC1", "effect": "10.42 & 3.227"}
{"compound": "COCc1noc(-c2nn(-c3ccc(F)c(F)c3)c3c2CCC3)n1", "effect": 52.09}
{"compound": "Cc1[nH]c2ccc(CNc3cc(C(N)=O)ccn3)cc2c1C", "effect": 12.22}
{"compound": "CC(C)(C)SCC(=O)NCCc1csc(N2CCCC2)n1", "effect": 7.485}
{"compound": "O=C(NCc1ccccc1)N1CCC(Oc2ncccc2Br)CC1", "effect": 17.01}
{"compound": "Cc1cc(S(=O)(=O)NCC(C)(C)N)c(F)cc1F.Cl", "effect": 24.67}
{"compound": "COC(=O)c1cccc(C(=O)NCc2ccco2)n1", "effect": -5.805}
{"compound": "CC1CCC(O)(CSc2nnnn2C)CC1", "stereo": "configuration not stated", "effect": 8.03}
{"compound": "O=C(NCCc1ccn(-c2ccccc2)n1)N1CCCC(O)C1", "stereo": "configuration not stated", "effect": 23.82}
{"compound": "C[C@@H]1CN(Cc2nnc(-c3cccnc3)o2)CC[C@]1(C)O", "effect": -26.72}
{"compound": "O=C(Cc1ccccc1Cl)N1CCN(CC(O)COCCO)CC1", "stereo": "configuration not stated", "effect": 17.14}
{"compound": "CN(CCn1cnc(-c2ccccc2)c1-c1ncc[nH]1)S(C)(=O)=O", "effect": "-8.969 & -3.022"}
{"compound": "CCN(CC)c1nc(Nc2cccc(C(C)O)c2)nc2ccccc12", "stereo": "configuration not stated", "effect": 104.3}

Some entries from above, unchanged:

compound	effect
Cc1nc(C)c(CCN2CCC(Oc3ccccc3F)CC2)s1	56.83%
Cc1ccc(OCC(=O)Nc2ncccc2OC(F)F)cc1	3.636% & 18.99%
O=C(Cc1ccccc1Cl)N1CCN(CC(O)COCCO)CC1 (configuration not stated)	17.14%